Compound potency records, mixed from different reports. Data source: NIAID ChemDB in PubChem.

Common to all: tests on isolated targets; agent: Hepatitis C virus; protein: Nonstructural protein 5B; endpoint: inhibition

Neighbouring rows are from separate reports.

structure,tested at,result
O=C(NCc1ccccn1)c1ccc(S(=O)(=O)Nc2ccc(N3CCOCC3)cc2)cc1,10 µg/mL,98%
O=C(Nc1ccc2cn[nH]c2c1)c1cc(NCCO)c(F)cc1F,0.1 µg/mL,20%
CNC(=O)CN1CCN(c2nc(Nc3ccc4[nH]ncc4c3)nc(OC)n2)CC1,10 µg/mL,47%
O=C(Nc1ccc2cn[nH]c2c1)c1cc(NCCN2CCOCC2)c(F)cc1F,10 µg/mL,28%
O=C(NCCN1CCOCC1)c1ccc(S(=O)(=O)Nc2ccc(N3CCOCC3)cc2)cc1,0.1 µg/mL,40%
COc1nc(Nc2ccc3cn[nH]c3c2)nc(N2CCOCC2)n1,1 µg/mL,41%
O=C(NCCc1cccnc1)c1ccc(S(=O)(=O)Nc2ccc(N3CCOCC3)cc2)cc1,0.01 µg/mL,25%
O=C(Nc1ccc2[nH]ncc2c1)c1cc(NCCO)c(F)cc1F,1 µg/mL,20%
CN(C)CCN(Cc1ccccc1)C(=O)c1ccc(S(=O)(=O)Nc2ccc(N3CCOCC3)cc2)cc1,0.01 µg/mL,16%
COc1nc(Nc2ccc3cn[nH]c3c2)nc(NN2CCOCC2)n1,1 µg/mL,32%
CC(C)CNc1cc(C(=O)Nc2ccc3cn[nH]c3c2)c(F)cc1F,0.1 µg/mL,0%
COc1nc(Nc2ccc3cn[nH]c3c2)nc(N2CCC(O)CC2)n1,0.1 µg/mL,10%
CSc1nc(Nc2ccc(N3CCOCC3)cc2)cc(N2CCN(CC(=O)NC(C)C)CC2)n1,1 µg/mL,65%
COc1nc(Nc2ccc3[nH]ncc3c2)nc(N2CCN(C)CC2)n1,0.1 µg/mL,12%
O=C(Nc1ccc2[nH]ncc2c1)c1cc(NCCN2CCCC2)c(F)cc1F,1 µg/mL,40%

For reference, 2 entries again:

structure,tested at,result
CN(C)CCN(Cc1ccccc1)C(=O)c1ccc(S(=O)(=O)Nc2ccc(N3CCOCC3)cc2)cc1,0.01 µg/mL,16%
O=C(NCc1ccccn1)c1ccc(S(=O)(=O)Nc2ccc(N3CCOCC3)cc2)cc1,10 µg/mL,98%

Inhibition is in % at the dose shown (toxicity tests: loss of growth or viability).